Assays:
Assay in all cases: MTT assay 48 hours after 5-minute exposure
Conditions in all cases: 5 minutes exposure, 48 hours recovery
[1] = system: HT29 marker-negative cells; format: cell-based
[2] = system: BO54 marker-positive smooth muscle cells; format: cell-based, baboon
[3] = system: A375 m/m marker-positive cells; format: cell-based, human

Measured: inhibition of metabolic activity (MTT)

Roridin A
non-specifically inhibitory: all assays above

Source: patent publication US6663881B2 (priority 1993, dated 2003)
